# Data reported in patent US20190113512A1 (MIT, published 2019).
# Changes are numbered by the printed parent chain.
# T1: H1BA (Mycobacterium tuberculosis)
# T1 chain: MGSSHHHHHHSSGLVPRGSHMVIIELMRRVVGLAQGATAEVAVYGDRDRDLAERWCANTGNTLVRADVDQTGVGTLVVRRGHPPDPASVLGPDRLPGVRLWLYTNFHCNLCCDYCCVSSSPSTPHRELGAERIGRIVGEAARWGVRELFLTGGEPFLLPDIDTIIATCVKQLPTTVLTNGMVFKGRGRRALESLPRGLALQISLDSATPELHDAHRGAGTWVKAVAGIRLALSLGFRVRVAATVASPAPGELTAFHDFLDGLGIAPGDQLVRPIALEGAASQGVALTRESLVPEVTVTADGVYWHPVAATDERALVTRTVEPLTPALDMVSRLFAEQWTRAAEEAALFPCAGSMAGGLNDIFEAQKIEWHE
# T2: H1-bx (Mycobacterium tuberculosis)
# T2 chain: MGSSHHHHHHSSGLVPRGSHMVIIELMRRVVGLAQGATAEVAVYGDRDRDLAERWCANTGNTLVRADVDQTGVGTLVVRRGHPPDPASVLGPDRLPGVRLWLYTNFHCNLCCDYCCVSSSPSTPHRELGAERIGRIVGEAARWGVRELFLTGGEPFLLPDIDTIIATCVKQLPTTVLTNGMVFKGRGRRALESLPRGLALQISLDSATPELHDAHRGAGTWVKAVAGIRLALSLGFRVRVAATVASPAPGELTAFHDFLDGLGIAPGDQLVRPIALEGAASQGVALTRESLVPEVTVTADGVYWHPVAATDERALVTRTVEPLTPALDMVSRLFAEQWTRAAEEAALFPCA
# T3: H2BA (Mycobacterium tuberculosis)
# T3 chain: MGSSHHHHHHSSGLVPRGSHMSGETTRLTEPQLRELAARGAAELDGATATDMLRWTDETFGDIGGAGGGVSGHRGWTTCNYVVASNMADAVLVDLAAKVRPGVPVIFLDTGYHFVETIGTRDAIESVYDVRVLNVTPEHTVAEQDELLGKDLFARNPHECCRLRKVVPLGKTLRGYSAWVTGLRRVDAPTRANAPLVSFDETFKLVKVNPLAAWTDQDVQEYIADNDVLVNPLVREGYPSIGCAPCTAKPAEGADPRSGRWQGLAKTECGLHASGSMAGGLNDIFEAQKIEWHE
# T4: H7BA (Mycobacterium tuberculosis)
# T4 chain: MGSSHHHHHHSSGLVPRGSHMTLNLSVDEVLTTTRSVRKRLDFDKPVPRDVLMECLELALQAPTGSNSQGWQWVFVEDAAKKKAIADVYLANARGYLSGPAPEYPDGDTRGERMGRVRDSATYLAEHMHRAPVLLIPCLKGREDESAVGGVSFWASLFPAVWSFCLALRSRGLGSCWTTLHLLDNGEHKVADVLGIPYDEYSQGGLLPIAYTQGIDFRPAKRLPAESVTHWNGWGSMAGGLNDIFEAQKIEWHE
# T5: H6BA (Mycobacterium tuberculosis)
# T5 chain: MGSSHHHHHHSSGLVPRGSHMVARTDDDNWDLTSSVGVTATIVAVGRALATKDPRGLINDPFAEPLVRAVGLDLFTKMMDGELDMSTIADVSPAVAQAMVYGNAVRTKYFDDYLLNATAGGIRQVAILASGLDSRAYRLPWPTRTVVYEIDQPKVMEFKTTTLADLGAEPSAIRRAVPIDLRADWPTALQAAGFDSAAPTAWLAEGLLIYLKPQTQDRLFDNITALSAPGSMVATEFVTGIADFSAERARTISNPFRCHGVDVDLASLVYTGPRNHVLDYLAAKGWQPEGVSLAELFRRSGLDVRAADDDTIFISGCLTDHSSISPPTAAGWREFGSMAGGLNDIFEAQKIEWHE
# T6: biotinylated recombinant Rv1656 (Mycobacterium tuberculosis)
# T6 chain: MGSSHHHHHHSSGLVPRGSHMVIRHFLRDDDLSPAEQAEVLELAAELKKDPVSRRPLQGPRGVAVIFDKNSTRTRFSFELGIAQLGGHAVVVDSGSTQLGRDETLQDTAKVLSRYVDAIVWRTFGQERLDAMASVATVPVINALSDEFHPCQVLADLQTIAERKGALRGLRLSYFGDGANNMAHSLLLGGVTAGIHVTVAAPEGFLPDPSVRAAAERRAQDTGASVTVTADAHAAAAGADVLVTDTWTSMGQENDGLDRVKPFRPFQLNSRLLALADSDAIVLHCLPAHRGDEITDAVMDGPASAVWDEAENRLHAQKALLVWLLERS
# B1: rcSso7d.H1BA.1 (designed binder)
# chain: MATVKFTYQGEEKQVDISKIKHVRRWGQYIIFAYDEGGGAYGGGWVSEKDAPKELLQMLEKQ
# notes: also called 1.4.1
# B2: rcSso7d.H1BA.3 (designed binder)
# chain: B1 chain with R24I, W26N
# notes: also called 1.E2.2
# B3: rcSso7d.H1BA.5 (designed binder)
# chain: B1 chain with H22Y, W26Y, I31G, A33I, Y41W, G43K, W45Y
# notes: also called 1.E2.4
# B4: rcSso7d.H1BA.4 (designed binder)
# chain: B1 chain with H22N, R24Y, A33S, G43W
# notes: also called 1.E2.3
# B5: rcSso7d.H2BA.1 (designed binder)
# chain: B1 chain with H22R, R24I, W26Y, Y29A, I31A, Y41R, G43Y
# notes: also called H2BA.PF5.1
# B6: rcSso7d.Rv1656 (yeast-surface displayed) (designed binder)
# chain: B1 chain with H22W, W26Y, I31G, A33S, Y41W, G43K, W45Y
# notes: also called rcSso7d.H4.2; H4.2
# B7: rcSso7d.H6BA.1 (designed binder)
# chain: B1 chain with H22W, R24Y, W26Y, A33G, Y41K, G43N, W45Y
# notes: also called 6.PF2.2
# B8: rcSso7d.H6BA.3 (designed binder)
# chain: B1 chain with H22R, R24I, W26A, Y29S, A33S, Y41I, G43H
# notes: also called 6.PF2.5
# B9: rcSso7d.H6BA.2 (designed binder)
# chain: B1 chain with H22W, R24Y, Y41A, G43K, W45S
# notes: also called 6.PF2.4
# B10: rcSso7d.H4.3 (designed binder)
# chain: MATVKFTYQGEEKQVDISKIKHVWRRGQNIYFRYDEGGGAWGAGAVSEKDAPKELLQMLEKQ
# notes: also called P4-10; C2
# B11: rcSso7d.H4.7 (designed binder)
# chain: B10 chain with H22Y, R26H, N29H, Y31A, W41H, A43W, A45S
# notes: also called P5-5; C7
# B12: rcSso7d.H4.5 (designed binder)
# chain: B10 chain with H22G, W24Y, R26H, N29S, Y31W, A43W, A45I
# notes: also called P4-17; C5
# B13: rcSso7d.H4.8 (designed binder)
# chain: B1 chain with H22D, R24W, W26H, Y29H, A33S, G43A, W45H
# notes: also called P5-8; C8
# B14: rcSso7d.H4.4 (designed binder)
# chain: MATVKFTYQGEEKQVDISKIKSVKRNGQSIDFDYDEGGGAAGEGKVSEKDAPKELLQMLEKQ
# notes: also called P4-12; C3
# B15: rcSso7d.H4.6 (designed binder)
# chain: B14 chain with K24H, N26Y, S29K, D31Y, A41I, E43K, K45H
# notes: also called P5-4; C6
# B16: rcSso7d.H4.9 (designed binder)
# chain: MATVKFTYQGEEKQVDISKIKYVKRIGQYISFNYDEGGGAHGHGIVSEKDAPKELLQMLEKQ
# notes: also called P5-10; C9
# B17: rcSso7d.H7.1 (designed binder)
# chain: MATVKFTYQGEEKQVDISKIKYVYRWGQRIWFRYDEGGGAIGRGRVSEKDAPKELLQMLEKQ
# notes: also called 7.B10
# B18: rcSso7d.H1BA.6 (designed binder)
# chain: B17 chain with Y22D, Y24W, R29W, W31D, R33I, I41D, R43W
# notes: also called H1BA.PF5.1
# Key:
# [1] = molecular target: T1, H1BA; assay: yeast-surface display flow cytometry, 100 nM antigen in 0.1% BSA/PBS
# [2] = molecular target: T2, H1-bx; assay: as above
# [3] = molecular target: T3, H2BA; assay: as above
# [4] = molecular target: T4, H7BA; assay: yeast-surface display flow cytometry, 100 nM analyte, geometric MFI
# [5] = molecular target: T1, H1BA; assay: as above
# [6] = molecular target: T3, H2BA; assay: as above
# [7] = molecular target: T5, H6BA; assay: as above
# [8] = molecular target: H4 (Mycobacterium tuberculosis, UniProt A1KJ73 2-307); assay: yeast-surface display flow cytometry, 100 nM antigen in 0.1% BSA/PBS
# [9] = molecular target: T6, biotinylated recombinant Rv1656
# [10] = molecular target: T5, H6BA; assay: yeast-surface display flow cytometry, 100 nM antigen in 0.1% BSA/PBS
# [11] = molecular target: T4, H7BA; assay: yeast-surface display flow cytometry, 0.1% BSA/PBS, heat, urine
binder,measurement,setting,value
B1,Baseline binding (% positive),[1],77.6%
B2,Geometric MFI (baseline binding),[2],1400
B3,Baseline binding (% positive),[1],32.5%
B4,Baseline binding (% positive),[2],31.4%
B5,Baseline binding (% positive),[3],55.1%
same,Geometric MFI (baseline binding),[3],474
B6,binding result,[4],no binding (tested: 100 nM)
same,binding result,[5],no binding (tested: 100 nM)
same,binding result,[6],no binding (tested: 100 nM)
same,binding result,[7],no binding (tested: 100 nM)
same,Baseline binding (% positive),[8],60.4%
same,EC50 (read off the curve),[9],~10 nM
B7,Baseline binding (% positive),[10],31.4%
B8,Baseline binding (% positive),[10],58.5%
B9,Baseline binding (% positive),[10],19.5%
B10,Baseline binding (% positive),[8],25.8%
B11,Baseline binding (% positive),[8],13.4%
B12,Baseline binding (% positive),[8],30.8%
B13,Baseline binding (% positive),[8],3.5%
B14,Baseline binding (% positive),[8],7.8%
B15,Baseline binding (% positive),[8],15.3%
B16,Baseline binding (% positive),[8],19.6%
B17,binding result,[11],binds
B18,Baseline binding (% positive),[1],70.4%
same,Geometric MFI (baseline binding),[1],1920
